# According to the supplement of paper PMC9931576:
# Human monoclonal antibodies against the spike receptor-binding domain (heavy:light variable regions). IC50 against pseudoviruses bearing the spike of naturally observed variants; lower = stronger; >10 µg/ml means not reached at the top dose. No active / inactive call. The stated detection limit is 0.0005 µg/ml; values near or below 0.001 µg/ml lie at the floor of the assay.
# B1: BD56-003 (protein)
# chain 1: EVQLLESGGRLVQPGGSLRLSCATSGFTFNTYAMTWVRQAPGKGLEWVSAISSRGSSTYYADSVKGRFTISRDISKNTLYLQMNSLRAEDTAIYYCAKDHIEGYYGSESYWDYWGQGTLVTVSS
# chain 2: QSVLTQPPSASGTPGQRVTISCSGSSSNIGRNYVYWYQQLPGTAPKLLIYRNSQRPSGVPDRFSGSKSGTSASLAISGLRSEDEADYYCATWDDSLNGLWVFGGGTKLTVL
# B2: BD57-096 (protein)
# chain 1: QVQLVQSGAEVKKPGSSVKVSCKASGGTFSSYTVSWVRQAPGQGLHWMGRIIPILGVADYAQKFQDRVTITADKSTGTAYMELSSLRSDDTAVYYCAREVGYSSSGSNWYFDLWGRGTLVTVSS
# chain 2: QSVLTQPPSVSGTPGQRVTISCTGSSSNIGAGYDVHWYQQVPGTAPKLLISVNNNRPSGVPDRFSGSKSGTSASLAITGLQAEDEADYYCQSYDSDLSGSLFGGGTKLTVL
# B3: BD57-079 (protein)
# chain 1: QMQLVQSGPEVKKPGTSVKVSCKASGFTFTTSAVQWVRQARGQRLEWIGWIAVGSGDTNYAQSFQERVTLSRDESTSTAYMELSSLRSEDTAVYYCAAPYCTGGACNDGFDIWGQGTMVTVSS
# chain 2: EIVLTQSPGTLSLSPGERATLSCRASQSVTSSYLAWYQQKPGQAPRVLIYAASSRATGIPDRFSGSGSGTEFTLTISRLEPEDFAVYHCQQYGRSPWTFGQGTKVEIK
# B4: BD57-090 (protein)
# chain 1: EVQLVESGGGLVQPGGSLRLSCAASGFSLSDYDMHWVRQAAGKGLEWVSAIGTAGDTYYPGSVKGRFTISRENAKNSMYLQMNSLRAGDTAVYYCVRDTGMTSVTTEGIKNYWYFDFWGRGTLVTVSS
# chain 2: DIQVTQSPSSLSASVGDRVTITCRASQSISSYLNWYQQKSGKAPKLLIYAASHLQSGVPSRFSGSGSGTDFTLTISSLQPEDFATYYCQQSYSSPPFTFGPGTKVDIK
# B5: CM32 (protein)
# chain 1: QVQLVQSGPEVKKPGASVKVSCQTSGYSFSDHYLHWVRQTPGQGFEWMGWIKPKSGATNSADNFQDRVTMTADASVNTAYMELSSLRPDDTAVYYCARGHRIPSAISDKYDFWGQGTLVTVSS
# chain 2: QSVLTQPASVSASPGQSITISCTGTSSDVGGYDYVSWYQHHPDNAPKLLIFEVSNRPSGVSNRFSGSKSGNAASLTISGLLAEDEADYFCTSYSSGRTPYVFGTGTKVTVL
# B6: BD57-100 (protein)
# chain 1: QVQLVQSGAEVKKPGASVQVSCKASGYTFTSYYIHWVRQAPGQGLEWMGTIDPSGGSTSYAQKFQGRVTMTRDTSTSPVYMELSSLRSDDTAVYYCATSTVTTLFVDYWGQGTLVTVSS
# chain 2: NFMLTQPHSVSESPGKTVTISCTRSSGSIANNYVQWYQQRPGSAPTTVIYEDNQRPSGVPDRFSGSIDSSSNSASLTISGLKTEDEADYYCQSSDTNINWVFGGGTKLTVL
# B7: BD57-089 (protein)
# chain 1: QVQLVQSGAEVKKPGASVKVSCKASGYTFTSYYIYWVRQAPGQGLEWMGVFNPSGDGTSYAQKFQGRVTMTRDTSASTVYMELSSLRSEDTAVYYCARGLHGYSSGYIAHHAFDYWGQGTLVTVSS
# chain 2: QSVLTQPPSVSGAPGQRVTISCTGSNSNIGTGYDVHWYQQLPGAAPRLLIYAYTNRPSGVPDRFSGSRSGTSASLAITGLQAEDEADYYCQSYDSSLAEDVVFGGGTRLTVL
# B8: BD57-074 (protein)
# chain 1: QVLLVESGGGVVQPGRSLRLSCAASDFIFSNYAIHWVRQAPGKGLEWVAGVSSDGTIKYYADSVKGRFTISRDNSKKTLYLQMNSLRTEDTAVYHCAREALETTVTIFDYWGQGTLVTVSS
# chain 2: DIQITQSPSSLSASVGDRVTITCRASQTISRYLNWYQQKPGKAPKLLIYAASTLQSGVPSRFSGSGSGTDFTLTISSLQPEDFATYFCQQSYSSPPITFGQGTRLEI
# B9: BD56-007 (protein)
# chain 1: EVQLVESGGQLVQPGRSLRLSCAASGFTFEDYAMHWVRQAPGRGLEWVSGIGWNSGVIGYADSVKGRFIISRDNAENSLYLQMRSLRAEDTALYYCAKEIEAVNSEGYALDVWGQGTTVTVAS
# chain 2: QSALTQPASMSGSPGQSITISCTGTSSDVGAYNFVSWYQQHPGKAPKLLIYEVNYRPSGVSSRFSGSKSGTTASLTISGLLAEDEAHYYCTSYTSSSSVLFGGGTKLAVL
# B10: BD57-091 (protein)
# chain 1: QVLLVESGGGVVPPGRSLRLSCAASGFMFSNYAMHWVRQAPGKGLEWVAVILHEGSNKLYADSVKGRFTISRDNSKNTLYLQMSSLRAEDTAVYYCARDHGTVTTLPDYWGQGTLVTVSS
# chain 2: DIQMTQSPSSLSASVGDRVTITCRASQSINNYLNWFQQRPGKAPKLLIYDASSLQSGVPSRFSGSGSGTDFTLTISSLQPEDFATYYCQQSYNTPPWTFGQGTKVEIK
# B11: BD57-080 (protein)
# chain 1: QVQLQQSGPGLVKPSETLPLTCTVSGDSISSNSYYWGWIRQSPGKELQWIGTMNLRGGNYYNLSLKSRVTISVDTSKKQFSLKLRSVTAADTAVYYCARADLSDFHAFNIWGQGTMVTVSS
# chain 2: DIQMTQSPSSLSASVGDRVTISCRASQSISDYLNWYQQKPGKAPKLLIYAASSLQSGVPSRFSGSGSGTDFTLTISSLQTEDFAAYYCQQSHSTPYTFGQGTKVEIK
# B12: BD57-097 (protein)
# chain 1: EVQLVESGGGLVQPGGSLRLSCAASGFTFSSFDMHWVRQPTGKGLEWVSVIGTAGDTYYPDSVKGRFTISRENAKNSLYLQINSLRAGDTAVYYCARANYFGSSGYGNYYYGLDVWGQGTTVTVSS
# chain 2: EIVMTQSPATLSVAPGERATLSCRASESVRSNLAWYQQKPGQGPRLLIYGASTRATGIPARFSGSGSGTEFTLTISSLQSEDFAVYYCQQYNIWPPLTFGGGTKVEIK
# How the values were obtained:
# Experiment in all cases: pseudovirus neutralization IC50; higher = weaker neutralization
# [1] = target: SARS-CoV-2 Omicron BA.1 spike pseudovirus
# Protocol: (§1)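 Single-round VSV luciferase pseudovirus mixed with antibody dilutions for 1 h and put on Huh-7 cells for about a day; IC50 from the dose curve.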
# [2] = target: SARS-CoV-2 Omicron BA.2 spike pseudovirus
# Protocol: as §1
# [3] = target: SARS-CoV-2 Omicron BA.2.75 spike pseudovirus
# Protocol: as §1
# [4] = target: SARS-CoV-2 Omicron BA.5 spike pseudovirus
# Protocol: as §1
# [5] = target: SARS-CoV-2 Omicron BQ.1.1 spike pseudovirus
# Protocol: as §1
# [6] = target: SARS-CoV-2 Omicron XBB spike pseudovirus
# Protocol: as §1
# [7] = target: SARS-CoV-2 early D614G spike pseudovirus
# Protocol: as §1
Binder,pseudovirus neutralization IC50 [1] [µg/mL],pseudovirus neutralization IC50 [2] [µg/mL],pseudovirus neutralization IC50 [3] [µg/mL],pseudovirus neutralization IC50 [4] [µg/mL],pseudovirus neutralization IC50 [5] [µg/mL],pseudovirus neutralization IC50 [6] [µg/mL],pseudovirus neutralization IC50 [7] [µg/mL]
B1,0.679,0.895,0.0152,0.708,> 10,> 10,0.00481
B2,0.271,0.275,0.204,0.255,0.872,0.803,0.0605
B3,0.001,0.000279,0.000817,0.194,0.881,2.58,0.00459
B4,> 10,> 10,> 10,> 10,> 10,> 10,> 10
B5,> 10,> 10,> 10,> 10,> 10,> 10,0.039
B6,0.638,0.536,0.613,0.416,2.81,3.99,0.307
B7,0.00963,0.00447,0.0125,0.00827,0.893,> 10,0.048
B8,> 10,> 10,> 10,> 10,> 10,> 10,> 10
B9,0.529,0.483,0.541,> 10,> 10,> 10,0.00932
B10,> 10,> 10,> 10,> 10,> 10,> 10,> 10
B11,1.13,1.25,1.29,> 10,> 10,> 10,0.243
B12,6.56,7.6,4.5,6.87,7.21,> 10,3.63
